# Tested on: A/Udorn/307/72(H3N2)
smiles,measurement,value
"CC(=O)N[C@H]1[C@H]([C@H](O)[C@H](O)CO)OC(C(=O)O)=C[C@@H]1N=C(N)N [zanamivir, Zanamivir]",Increase in the HI titer of saliva induced by zanamivir,16 fold

# Reference: paper PMC3445474 (PLoS ONE, 2012)
